## PSTVd loop 6 mutant pool in Nicotiana benthamiana

From the data files of Wu et al. 2024, doi:10.1371/journal.ppat.1012142.

Region: loop 6 of PSTVd (intermediate strain), upper and lower strand joined, each 5' to 3', the first 5 letters being the upper strand, closing pairs included. Wild type: UGACCGCGAG. Varied positions (N): UNNNCGNNNG.

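Three N. benthamiana plants were inoculated with the whole mutant pool. Samples came from the inoculated region at 5 days, the leaf margin at 10 and upper systemic leaves at 12.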

Values are reads per thousand in the sample; higher means more abundant, 0 means not found.
Each value is the mean of three plants.
"Pool" is the share in the plasmid pool used as inoculum, on the same scale.
The inoculated region was read from the minus strand, the other sites from the plus strand.
Wild type was 20.7 per thousand in the pool and the most common sequence in every sample (inoculated region 195, 198, 203; leaf margin 629, 591, 734; systemic leaves 942, 870, 868).

With UUCGCGGCGC (pool 0.0131) the assay gave inoculated region 0; leaf margin 0; systemic leaves 0. With UACGCGCCUG (pool 0.222) the assay gave inoculated region 0.0956; leaf margin 0.00773; systemic leaves 0. UGACCGGGAG (pool 0.144) gave inoculated region 0.381; leaf margin 0.645; systemic leaves 0.579. UUUACGCUGG (pool 0.105) read inoculated region 0.108; leaf margin 0.0184; systemic leaves 0. With UGGCCGCAAG (pool 0.0915) the assay gave inoculated region 0.649; leaf margin 0.0393; systemic leaves 0. With UCAUCGUAAG (pool 0.0654) the assay gave inoculated region 0.0967; leaf margin 0; systemic leaves 0.

UGCCCGGACG (pool 0.157) gave inoculated region 0.119; leaf margin 0.00773; systemic leaves 0. UCUGCGCUCU (pool 0.0131) gave inoculated region 0; leaf margin 0; systemic leaves 0. With UCUCCGAACG (pool 0.235) the assay gave inoculated region 0.0536; leaf margin 0.0155; systemic leaves 0. UAAGCGACAG (pool 0.275) read inoculated region 0.0833; leaf margin 0.00773; systemic leaves 0. UUCACGUUAG (pool 0.536) read inoculated region 0.0416; leaf margin 0.00773; systemic leaves 0. UGAACGACGG (pool 0.222) read inoculated region 0.181; leaf margin 0.0169; systemic leaves 0.

For UGGCCGAACG (pool 0.275) the result was inoculated region 0.180; leaf margin 0.0232; systemic leaves 0. UGAGCGGUCG (pool 0.301) gave inoculated region 0.107; leaf margin 0; systemic leaves 0. For UUAUCGGUCG (pool 0.222) the result was inoculated region 0.563; leaf margin 0.0747; systemic leaves 0.0262. UCAUCGAAGG (pool 0.0523) read inoculated region 0.0936; leaf margin 0; systemic leaves 0. For UCAGCGGACG (pool 0.248) the result was inoculated region 0.560; leaf margin 0.0936; systemic leaves 0.00684. UCAACGAAGG (pool 0.0784) read inoculated region 0.0531; leaf margin 0.00773; systemic leaves 0.

With UGGCCGGCUG (pool 0.327) the assay gave inoculated region 0.154; leaf margin 0.0445; systemic leaves 0. UAAUCGUAUG (pool 0.431) gave inoculated region 0.119; leaf margin 0.101; systemic leaves 0. UCAACGUGAG (pool 0.157) read inoculated region 0.631; leaf margin 0.0416; systemic leaves 0. With UCCACGCACG (pool 0.235) the assay gave inoculated region 0.0772; leaf margin 0; systemic leaves 0. UGUGCGUGCG (pool 0.248) read inoculated region 0.0951; leaf margin 0; systemic leaves 0. With UGAUCGCACG (pool 0.366) the assay gave inoculated region 0.136; leaf margin 0; systemic leaves 0.

UCUACGUAUG (pool 0.301) read inoculated region 0.0954; leaf margin 0.887; systemic leaves 0. UGCACGCUAG (pool 0.105) read inoculated region 0.0836; leaf margin 0; systemic leaves 0.0399. For UUCGCGUGGG (pool 0.288) the result was inoculated region 0.0777; leaf margin 0.00841; systemic leaves 0. For UUAGCUGUCC (pool 0.0131) the result was inoculated region 0; leaf margin 0; systemic leaves 0. For UGAUCGUACG (pool 0.288) the result was inoculated region 0.114; leaf margin 0; systemic leaves 0. For UCGCCGGUCG (pool 0.288) the result was inoculated region 0.0480; leaf margin 0; systemic leaves 0.

UCAGCGCUAG (pool 0.0784) read inoculated region 0.119; leaf margin 0; systemic leaves 0. UCUCCGCGCG (pool 0.235) read inoculated region 0.0953; leaf margin 0.00920; systemic leaves 0. UUCUCGUAGG (pool 0.314) read inoculated region 0.107; leaf margin 0; systemic leaves 0.

The authors trace changes outside the varied positions to PCR and sequencing errors or to mutation in the plant; presence does not show that a variant is infectious alone.
Samples held 36,220 to 57,551 reads, so the smallest values rest on one or two reads.